Anti-infective test results gathered from many reports (values: NIAID ChemDB through PubChem).

Shared fields: growth or infection tests; species: Hepatitis C virus; read-out: EC50

Conditions beyond the fields shown may differ between rows.

SMILES | read by | cell line | strain | result
COC(=O)N[C@H](C(=O)N1CCC[C@@H]1C1=NCC(c2cnc(-c3ccc(-c4cnc([C@H]5CCCN5C(=O)[C@@H](NC(=O)OC)C(C)C)[nH]4)c(F)c3)nc2)=N1)C(C)C | - | - | 1b | 0.00001–0.000999 µM
Cn1nc(C(=O)N2c3cccc(O)c3NC3=C(C(=O)CC(C)(C)C3)C2c2ccc(OCc3ccccc3)cc2F)cc1-c1ccco1 | luciferase / reporter gene / replicon | - | 1b | 1.73 µM
CCOc1nc(NCc2ccc(S(N)(=O)=O)cc2)nc2ccc(-c3ccc(NC(=O)NCCN4CCCC4)cc3)nc12 | replicon | - | - | <0.1 µM
CC(=O)N1c2cccc(O)c2NC2=C(C(=O)CC(C)(C)C2)C1c1[nH]c(-c2ccccc2)nc1Cl | luciferase / reporter gene / replicon | - | 1b | >100 µM
COC(=O)N[C@@H](C)C(=O)N1CCC[C@@H]1C1=NCC(c2cnc(-c3ccc(-c4cnc([C@H]5CCCN5C(=O)[C@H](C)NC(=O)OC)[nH]4)c(F)c3)nc2)=N1 | - | - | 1b | 0.00001–0.000999 µM
C=CC1CC1(NC(=O)[C@@H]1C[C@@H](OC(=O)N[C@H](C(=O)OC)[C@@H](C)CC)CN1C(=O)[C@@H](NC(=O)OC(C)(C)C)C(C)(C)C)C(=O)NS(=O)(=O)C1CC1 | replicon | Huh7 | 1b | >10 µM
COCCOc1nc(NCc2ccc(S(N)(=O)=O)cc2)nc2ccc(-c3ccc(F)c(Cl)c3)nc12 | replicon | - | - | <0.1 µM
C=CC1CC1(NC(=O)[C@@H]1C[C@@H](OC(=O)Nc2cc(C)ccc2-n2cccn2)CN1C(=O)[C@@H](NC(=O)OC(C)(C)C)C(C)(C)C)C(=O)NS(=O)(=O)C1CC1 | replicon | Huh7 | 1b | <0.1 µM
CNC(=O)c1c(-c2ccc(F)cc2)oc2cc(N(C)S(C)(=O)=O)c(OCc3nsc(N(C)C4CC4)n3)cc12 | replicon | Huh7 | - | <1 µM
COC(=O)N[C@@H](C(=O)N[C@@H](C)c1ncc(-c2cnc(-c3ccc(-c4cnc([C@H]5CCCN5C(=O)[C@H](NC(=O)OC)c5ccccc5)[nH]4)cc3)nc2)[nH]1)c1ccccc1 | - | - | 1b | 0.00001–0.000999 µM
CNC(=O)c1c(-c2ccc(F)cc2)oc2cc(N(C)S(C)(=O)=O)c(Oc3nc(CCl)ns3)cc12 | replicon | Huh7 | - | <1 µM
CC1(C)CC(=O)C2=C(C1)Nc1c(O)cccc1N(C(=O)c1ccc3ncccc3n1)C2c1ccc(OCc2ccccc2)cc1F | luciferase / reporter gene / replicon | - | 1b | 0.4 µM
CC(Nc1nc(NCC(F)(F)F)c2nc(-c3ccc(F)cc3)ccc2n1)c1ccc(-n2cncn2)cc1 | replicon | - | - | <0.1 µM
COC(=O)N[C@@H](C(=O)N1CCC[C@H]1c1ncc(-c2ccc(-c3ccc(-c4cnc([C@@H]5CCCN5C(=O)Cc5cccnc5)[nH]4)cc3C)cc2)[nH]1)c1ccccc1 | - | - | 1b | 0.00001–0.000999 µM
CNC(=O)c1c(-c2ccc(F)cc2)oc2cc(NS(C)(=O)=O)c(C3CC3)cc12 | replicon | Huh7 | - | <1 µM
C=CC1CC1(NC(=O)[C@@H]1C[C@@H](OC(=O)Nc2ccccc2Cl)CN1C(=O)[C@@H](NC(=O)OC(C)(C)C)C(C)(C)C)C(=O)NS(=O)(=O)C1CC1 | replicon | Huh7 | 1b | 1–10 µM
CCOc1nc(NC2(c3ccc(F)cc3)CC2)nc2ccc(-c3ccc(C(=O)NC(C)(C)CN4CCCC4)cc3)nc12 | replicon | - | - | <0.1 µM
CNC(=O)c1c(-c2ccc(F)cc2)oc2cc(-c3ccn(C)n3)c(OC(C)C)cc12 | replicon | Huh7 | - | <10 µM
C=CC1CC1(NC(=O)[C@@H]1C[C@@H](OC(=O)Nc2cc([N+](=O)[O-])ccc2C)CN1C(=O)[C@@H](NC(=O)OC(C)(C)C)C(C)(C)C)C(=O)NS(=O)(=O)C1CC1 | replicon | Huh7 | 1b | 1–10 µM
CCOc1nc(NCc2ccc(F)cc2)nc2ccc(-c3ccc(NC(=O)NCCN4CCCC4)cc3)nc12 | replicon | - | - | <0.1 µM
C=CC1CC1(NC(=O)[C@@H]1C[C@@H](OC(=O)N2CCCC2)CN1C(=O)[C@@H](NC(=O)OC(C)(C)C)C(C)(C)C)C(=O)NS(=O)(=O)C1CC1 | replicon | Huh7 | 1b | >10 µM
CC(C)C(=O)Nc1ccc(-c2ccc3nc(N)nc(OCCF)c3n2)cc1 | replicon | Huh7 | - | 0.3–1 µM
COC(=O)N[C@H](C(=O)N[C@@H](C)c1ncc(-c2ccc(-c3ccc(-c4cnc([C@@H](C)NC(=O)[C@H](NC(=O)OC)c5ccccc5)[nH]4)cc3)nc2)[nH]1)c1ccccc1 | - | - | 1b | 0.00001–0.000999 µM
CC(C)NC(=O)N1c2cccc(O)c2NC2=C(C(=O)CC(C)(C)C2)C1c1ccc(Cl)cc1Cl | luciferase / reporter gene / replicon | - | 1b | 10.06 µM
C=CC1CC1(NC(=O)[C@@H]1C[C@@H](OC(=O)NCCc2ccccc2)CN1C(=O)[C@@H](NC(=O)OC(C)(C)C)C(C)(C)C)C(=O)NS(=O)(=O)C1CC1 | replicon | Huh7 | 1b | 1–10 µM
CCOCc1cc(-c2cc3oc(-c4ccc(F)cc4)c(C(=O)NC)c3cc2OC)no1 | replicon | Huh7 | - | <1 µM
C=CC1CC1(NC(=O)[C@@H]1C[C@@H](OC(=O)Nc2ccccc2C(=O)OCC)CN1C(=O)[C@@H](NC(=O)OCC)C(C)(C)C)C(=O)NS(=O)(=O)C1CC1 | replicon | Huh7 | 1b | 0.1–1 µM
COC(=O)N[C@@H](C(=O)N(C)[C@@H](C)c1ncc(-c2ccc(-c3ncc(-c4cnc([C@H]5CCCN5C(=O)[C@H](NC(=O)OC)c5ccccc5)[nH]4)cn3)cc2)[nH]1)c1ccccc1 | - | - | 1b | 0.00001–0.000999 µM
COc1cc(OC)c(CCC2(C3CCCC3)CC(O)=C(Sc3nc4nc(C)cc(C)n4n3)C(=O)O2)cc1Cl | replicon | - | M423T | 201 µM
C[C@H](NC(=O)[C@H](c1ccccc1)N(C)C)c1ncc(-c2ccc(-c3ccc(-c4cnc([C@@H](C)NC(=O)[C@@H](c5ccccc5)N(C)C)[nH]4)cc3)nc2)[nH]1 | - | - | 1b | 0.00001–0.000999 µM
CS(=O)(=O)CCNc1nc(NCc2ccc(S(N)(=O)=O)cc2)nc2ccc(-c3ccc(F)c(NS(=O)(=O)C4CC4)c3)nc12 | replicon | - | - | 0.1–0.25 µM
COC(=O)N[C@@H](C(=O)N[C@@H](C)c1ncc(-c2ccc(-c3ccc(-c4cnc([C@H]5CCCN5C(=O)[C@H](NC(=O)OC)c5ccccc5)[nH]4)nn3)cc2)[nH]1)c1ccccc1 | - | - | 1b | 0.001–0.099 µM
CC1(Oc2nc(NCc3ccc(S(N)(=O)=O)cc3)nc3ccc(-c4ccc(F)cc4)nc23)CC1 | replicon | - | - | <0.1 µM
C=CC1CC1(NC(=O)[C@@H]1C[C@@H](OC(=O)Nc2ccccc2C(=O)OC(C)C)CN1C(=O)[C@@H](NC(=O)OC(C)(C)C)C(C)(C)C)C(=O)NS(=O)(=O)C1CC1 | replicon | Huh7 | 1b | 0.1–1 µM
CNC(=O)c1c(-c2ccc(F)cc2)oc2cc(-c3cncnc3)c(OC(C)C)cc12 | replicon | Huh7 | - | <10 µM
CCOc1nc(N)nc2ccc(-c3ncc(N)s3)nc12 | replicon | Huh7 | - | <0.3 µM
CNC(=O)c1c(-c2ccc(F)cc2)oc2cc(-c3c(COC)noc3C)c(OC)cc12 | replicon | Huh7 | - | <1 µM
C=CC1CC1(NC(=O)[C@@H]1C[C@@H](OC(=O)Nc2ccccc2C(=O)OC)CN1C(=O)[C@@H](NC(=O)OC(C)(C)C)C(C)(C)C)C(=O)NS(=O)(=O)C1CC1 | replicon | Huh7 | 1b | <0.1 µM

3 of the rows above, restated:

SMILES	read by	cell line	strain	result
CS(=O)(=O)CCNc1nc(NCc2ccc(S(N)(=O)=O)cc2)nc2ccc(-c3ccc(F)c(NS(=O)(=O)C4CC4)c3)nc12	replicon	-	-	0.1–0.25 µM
CCOc1nc(N)nc2ccc(-c3ncc(N)s3)nc12	replicon	Huh7	-	<0.3 µM
Cn1nc(C(=O)N2c3cccc(O)c3NC3=C(C(=O)CC(C)(C)C3)C2c2ccc(OCc3ccccc3)cc2F)cc1-c1ccco1	luciferase / reporter gene / replicon	-	1b	1.73 µM

An empty or dashed field is not shown. ECn is the concentration giving n% inhibition of infection, replication or growth. Two numbers with a dash give a range or band.